Data published in US6808877B2 (priority 2000, dated 2004).

Test: general procedure: Fmoc solid-phase peptide synthesis
Settings: whole synthesis, scale of the general procedure 0.25 mmol

With WKYMVM (Trp-Lys-Tyr-Met-Val-D-Met the “final purity (method not given)” value was “greater than 90%”.
